A mixed list of measured activities; the numbers were collected in NIAID ChemDB.

All rows: whole-cell or culture tests

MIC50, MIC90 and the like: level of inhibition, or share of isolates inhibited. Percent inhibition refers to the dose given; in toxicity tests it is the harm to the cells. Two numbers with a dash give a range or band. Conditions beyond the fields shown may differ between rows. ECn: concentration that inhibits the pathogen or its effect by n%.

COc1c(N2C[C@@H]3CCCN[C@@H]3C2)c(F)cc2c(=O)n(N)c(=O)n(C3CC3)c12 ; organism: Mycobacterium smegmatis ; strain: G89C mutant ; measure: MIC99 ; result: 6.25 µg/mL
CC[C@H]1OC(=O)[C@H](C)[C@@H](O[C@H]2C[C@@](C)(OC)[C@@H](OC(C)=O)[C@H](C)O2)[C@H](C)[C@@H](O[C@@H]2O[C@H](C)C[C@H](N(C)C)[C@H]2OC(=O)NNC)C(C)(O)C[C@@H](C)/C(=N\OCCCC2CCCCC2)[C@H](C)[C@@H](O)[C@]1(C)O ; organism: Mycobacterium avium complex ; strain: 20096 (clarithromycin-resistant) ; measure: MIC ; result: 3.13 µg/mL
CCOC(=O)CCCc1cn(CC2Cc3cn(-c4ccccc4)c4cccc(c34)C(=O)O2)nn1 ; organism: Mycobacterium spp. ; strain: MC2 6230 ; method: visual reading ; measure: EC50 ; result: >100 µg/mL
O=C(Nc1ccc(F)cc1)c1ccc(Cl)cc1OS(=O)(=O)c1ccccc1 ; organism: Mycobacterium kansasii ; strain: 6509/96 ; setting: 14 d ; measure: MIC ; result: 16 µM
C=C1C(=O)[C@@]23C(=O)O[C@H]4CCC(C)(C)[C@H]5C(=O)OC[C@@]45[C@@H]2CC[C@@H]1[C@H]3OC(=O)c1ccc(F)cc1 ; organism: Mycobacterium phlei ; strain: ATCC 355 ; method: resazurin ; measure: MIC ; result: 4 µg/mL
CC1(C)N=C(N)N=C(N)N1OCCCOc1cc(Cl)c(Cl)cc1Cl ; organism: Mycobacterium avium complex ; strain: DW17 ; measure: MIC ; result: 1 µg/mL
O=C(Nc1cccc(Cl)c1)c1ccc(Cl)cc1OS(=O)(=O)c1ccccc1 ; organism: Mycobacterium kansasii ; strain: 235/80 ; setting: 21 d ; measure: MIC ; result: 16 µM
CCCCCCCc1cn(CC2Cc3cn(-c4ccccc4)c4cccc(c34)C(=O)O2)nn1 ; organism: Mycobacterium spp. ; strain: MC2 6230 ; method: visual reading ; measure: EC50 ; result: >100 µg/mL
CO[C@H]1/C=C/O[C@@]2(C)Oc3c(C)c(O)c4c(O)c(c(/C=N/N5CCN(C6CCCC6)CC5)c(O)c4c3C2=O)NC(=O)/C(C)=C\C=C\[C@H](C)[C@H](O)[C@@H](C)[C@@H](O)[C@@H](C)[C@H](OC(C)=O)[C@@H]1C ; organism: Mycobacterium avium intracellulare ; strain: SKV ; measure: MIC ; result: 0.5 µg/mL
CCCCCCCCCCCCSCC#CC(=O)O ; organism: Mycobacterium smegmatis ; strain: mc22389 ; measure: MIC99 ; result: 92.5 µM
CN(Cc1cn(CC2Cc3cn(-c4ccccc4)c4cccc(c34)C(=O)O2)nn1)S(C)(=O)=O ; organism: Mycobacterium spp. ; strain: MC2 6230 ; method: visual reading ; measure: EC50 ; result: >100 µg/mL
CCc1cc(C(N)=S)ccn1 ; organism: Mycobacterium avium complex ; strain: 31 strains ; method: broth dilution ; measure: inhibition ; tested at: 2.5 µg/mL ; result: 16.1%
CCCCCCSCCCCCCCCCCCCC#CC(=O)O ; organism: Mycobacterium smegmatis ; strain: mc2155 ; measure: MIC99 ; result: 70.5 µM
CN[C@@H]1[C@H](O[C@H]2[C@H](O[C@H]3[C@H](O)[C@@H](O)[C@H](N=C(N)N)[C@@H](O)[C@@H]3N=C(N)N)O[C@@H](C)[C@]2(O)C=O)O[C@@H](CO)[C@H](O)[C@H]1O ; organism: Mycobacterium aurum ; method: broth dilution / resazurin ; measure: MIC ; result: 0.195 µg/mL
CC[C@H]1OC(=O)[C@H](C)[C@@H](O[C@H]2C[C@@](C)(OC)[C@@H](OC(C)=O)[C@H](C)O2)[C@H](C)[C@@H](O[C@@H]2O[C@H](C)C[C@H](N(C)C)[C@H]2OC(=O)NN2CCCCC2)C(C)(O)C[C@@H](C)/C(=N\OCCCC2CCCCC2)[C@H](C)[C@@H](O)[C@]1(C)O ; organism: Mycobacterium avium complex ; strain: 20092 (clarithromycin-resistant) ; measure: MIC ; result: 3.13 µg/mL
CCC1CN(c2c(F)cc3c(=O)n(N)c(=O)n(C4CC4)c3c2OC)CCN1 ; organism: Mycobacterium smegmatis ; strain: WT ; measure: MIC99 ; result: 10 µg/mL
O=C1OC(Cn2cc(-c3ccc(F)cc3F)nn2)Cc2cn(-c3ccccc3)c3cccc1c23 ; organism: Mycobacterium spp. ; strain: MC2 6230 ; method: visual reading ; measure: EC50 ; result: >100 µg/mL
CCCCCCCCCCCCCCCC#CC(=O)Oc1cnccc1C(=O)OCCC ; organism: Mycobacterium smegmatis ; strain: mc2155 ; measure: MIC99 ; result: 92.8 µM
C=C1C(=O)[C@@]23C(=O)O[C@H]4CCC(C)(C)[C@H]5[C@H](O)OC[C@@]45[C@@H]2CC[C@@H]1[C@H]3OC(=O)c1ccccc1 ; organism: Mycobacterium phlei ; strain: ATCC 355 ; method: resazurin ; measure: MIC ; result: 1 µg/mL
C[C@H]1c2cccc(O)c2C(O)=C2C(=O)[C@]3(O)C(O)=C(C(N)=O)C(=O)[C@@H](N(C)C)[C@@H]3[C@@H](O)[C@@H]21 ; organism: Mycoplasma hominis ; strain: 20 strains ; measure: MIC50 ; result: 0.02 µg/mL
CCC1CN(c2c(F)cc3c(=O)[nH]c(=O)n(C4CC4)c3c2OC)CCN1 ; organism: Mycobacterium smegmatis ; strain: D95Y mutant ; measure: MIC99 ; result: 200 µg/mL
Cc1nc2ccccn2c1C(=O)NCc1ccc(N(C)C)cc1 ; organism: Mycobacterium ulcerans ; method: fluorescence ; measure: MIC50 ; result: 0.1–1 µg/mL
CC[C@H]1OC(=O)[C@H](C)[C@@H](OC2C[C@@](C)(OC)[C@@H](OC(=O)CCCCc3ccccc3)[C@H](C)O2)[C@H](C)[C@@H](O[C@@H]2O[C@H](C)C[C@H](N(C)C)[C@H]2O)C(C)(O)C[C@@H](C)/C(=N\OCCCOc2ccccc2)[C@H](C)[C@@H](O)[C@]1(C)O ; organism: Mycobacterium avium complex ; strain: 20092 (clarithromycin-resistant) ; measure: MIC ; result: 6.25 µg/mL
COc1cccc(SCC2Cc3cn(-c4ccccc4)c4cccc(c34)C(=O)O2)c1 ; organism: Mycobacterium spp. ; strain: MC2 6230 ; method: visual reading ; measure: EC50 ; result: >100 µg/mL
N[C@@H]1CONC1=O ; organism: Mycobacterium avium complex ; strain: 713 strains ; method: agar ; measure: EC50 ; result: >30 µg/mL
O=C(Nc1ccc(Br)cc1)c1ccc(Br)cc1OS(=O)(=O)c1ccccc1 ; organism: Mycobacterium kansasii ; strain: 6509/96 ; setting: 14 d ; measure: MIC ; result: 8 µM
CCCCc1cn(CC2Cc3cn(-c4ccccc4)c4cccc(c34)C(=O)O2)nn1 ; organism: Mycobacterium spp. ; strain: MC2 6230 ; method: visual reading ; measure: EC50 ; result: >100 µg/mL
CCCCCCCCC(=O)O[C@H]1[C@H](C)[C@@H](O[C@@H]2O[C@H](C)C[C@H](N(C)C)[C@H]2O)C(C)(O)C[C@@H](C)/C(=N\OCCCOc2ccccc2)[C@H](C)[C@@H](O)[C@](C)(O)[C@@H](CC)OC(=O)[C@@H]1C ; organism: Mycobacterium avium complex ; strain: 20092 (clarithromycin-resistant) ; measure: MIC ; result: 3.13 µg/mL
C=C1C(=O)[C@@]23C(=O)O[C@H]4CCC(C)(C)[C@H]5[C@H](O)OC[C@@]45[C@@H]2CC[C@@H]1[C@H]3OC(=O)c1cnccn1 ; organism: Mycobacterium phlei ; strain: ATCC 355 ; method: resazurin ; measure: MIC ; result: 4 µg/mL
O=C(O)c1cn(C2CC2)c2cc(N3C[C@@H]4CCCN[C@@H]4C3)c(F)cc2c1=O ; organism: Mycobacterium smegmatis ; strain: D95Y mutant ; measure: MIC99 ; result: 0.5 µg/mL
COc1ccccc1SCC1Cc2cn(-c3ccccc3)c3cccc(c23)C(=O)O1 ; organism: Mycobacterium spp. ; strain: MC2 6230 ; method: visual reading ; measure: EC50 ; result: >100 µg/mL
C=C1C(=O)[C@@]23C(CC[C@@H]1[C@H]2OC(=O)c1ccc(F)cc1)[C@@]12COC3(O)[C@@H](O)[C@@H]1C(C)(C)CC[C@@H]2OC(C)=O ; organism: Mycobacterium phlei ; strain: ATCC 355 ; method: resazurin ; measure: MIC ; result: 4 µg/mL
O=C(Nc1ccc(Cl)cc1)c1cc(Cl)ccc1OS(=O)(=O)c1ccccc1 ; organism: Mycobacterium kansasii ; strain: 6509/96 ; setting: 14 d ; measure: MIC ; result: 8 µM
CC(C)N=c1cc2n(-c3ccc(Cl)cc3)c3ccccc3nc-2cc1Nc1ccc(Cl)cc1 ; organism: Mycobacterium fortuitum ; strain: 9738 ; measure: MIC ; result: 33.3 µg/mL
CCCCCC(CC(=O)N1N=CCCC1C(=O)N[C@H]1COC(=O)C2C[C@@H](C)CNN2C(=O)[C@H](C)NC(=O)[C@@H](CC(C)C)NC1=O)C(=O)O ; organism: Mycobacterium aurum ; strain: SB66 ; measure: MIC ; result: 6.3 µg/mL
Cc1ccc(NC(=O)c2ccc3cc(O)ccc3c2)cc1 ; organism: Mycobacterium avium paratuberculosis ; strain: Clinical isolate CIT03 (MAP) ; method: broth dilution ; measure: MIC ; result: 27 µM
O=C(NCc1ccc(C(F)(F)F)cc1Cl)c1c(Cl)nc2ccccn12 ; organism: Mycobacterium ulcerans ; method: fluorescence ; measure: MIC50 ; result: >10 µg/mL
CCCCCCCCCCNNC(=O)O[C@H]1[C@H](O[C@@H]2[C@@H](C)[C@H](O[C@H]3C[C@@](C)(OC)[C@@H](OC(C)=O)[C@H](C)O3)[C@@H](C)C(=O)O[C@H](CC)[C@@](C)(O)[C@H](O)[C@@H](C)/C(=N/OCCCC3CCCCC3)[C@H](C)CC2(C)O)O[C@H](C)C[C@@H]1N(C)C ; organism: Mycobacterium avium complex ; strain: 20096 (clarithromycin-resistant) ; measure: MIC ; result: >50 µg/mL
O=C(Nc1cccc(C(F)(F)F)c1)c1cc(Cl)ccc1OS(=O)(=O)c1ccccc1 ; organism: Mycobacterium kansasii ; strain: 235/80 ; setting: 21 d ; measure: MIC ; result: 8 µM
C=C1C(=O)[C@@]23C(=O)O[C@H]4CCC(C)(C)[C@H]5C(=O)OC[C@@]45[C@@H]2CC[C@@H]1[C@H]3OC(=O)C1CCCC1 ; organism: Mycobacterium phlei ; strain: ATCC 355 ; method: resazurin ; measure: MIC ; result: 1 µg/mL
O=C(Nc1ccc(Cl)cc1)c1ccc(Cl)cc1OS(=O)(=O)c1ccccc1 ; organism: Mycobacterium kansasii ; strain: 6509/96 ; setting: 21 d ; measure: MIC ; result: 16 µM
CCCCCCCCCCCCCCNNC(=O)O[C@H]1[C@H](O[C@@H]2[C@@H](C)[C@H](O[C@H]3C[C@@](C)(OC)[C@@H](OC(C)=O)[C@H](C)O3)[C@@H](C)C(=O)O[C@H](CC)[C@@](C)(O)[C@H](O)[C@@H](C)/C(=N/OCCCC3CCCCC3)[C@H](C)CC2(C)O)O[C@H](C)C[C@@H]1N(C)C ; organism: Mycobacterium avium complex ; strain: 20092 (clarithromycin-resistant) ; measure: MIC ; result: >50 µg/mL
CC(C)N=C(N)/N=C(\N)NOCCCOc1cc(Cl)c(Cl)cc1Cl ; organism: Mycobacterium avium complex ; strain: 1439 ; measure: MIC ; result: 32 µg/mL
O=C(NCc1ccc(CN2CCOCC2)nc1)c1c(Cl)nc2ccccn12 ; organism: Mycobacterium ulcerans ; method: fluorescence ; measure: MIC50 ; result: 1–10 µg/mL